PubChem BioAssay AID1259414 | Drosophila RNAi Screening Center, 2018
The screen tested about 24,000 reagents; shown is an unselected part of those that have a named target and a result. In the full data, about 1,210 (5%) are marked active. 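Inactive calls also include excluded dsRNAs with several or no targets, genes unexpressed in JW18, and well A1, regardless of score.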 Entries without a mark were called inactive. The numbers tell different reagents against one gene apart. Names joined by + are all predicted targets of the reagent.

- Test: 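Genome-wide screen for host control of endosymbiont load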 (primary screen)
- System: Drosophila JW18 cells infected with Wolbachia
- Reagent: long dsRNA against Drosophila genes, 0.25 µg dsRNA per well of a 384-well plate
- Timing: 5 days
- Treatment: cells persistently infected with Wolbachia before knock-down; no added drug
- Measurement: 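Automated imaging of bacterial rRNA staining divided by host cell count, reported as plate-normalised robust z-score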
- Reading the numbers: Wolbachia per cell robust z: higher = more Wolbachia per host cell than the plate typical
- Rule for the call: 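Hit when robust z is 1.5 or more, or -1.5 or less, in at least two of three replicates; excludes dsRNAs with several or no targets, genes not expressed in JW18 and well A1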

| target | reagent no. | Wolbachia per cell robust z, rep 1 | Wolbachia per cell robust z, rep 2 | Wolbachia per cell robust z, rep 3 |
| --- | --- | --- | --- | --- |
| alpha4GT1 | 1 | 0.268 | -0.587 | -0.097 |
| Rap2l | 1 | -0.804 | 0.27 | -1.04 |
| Or94a | 1 | -2.85 | 0.791 | -2.88 |
| CG7203 | 1 | 0.403 | 1.58 | 1.04 |
| CG7203 | 2 | -0.663 | -0.611 | -0.344 |
| CG14903 | 1 | 0.617 | -0.524 | -0.308 |
| PGAP5 | 1 | 0.484 | -0.293 | -1.27 |
| PGAP5 | 2 | 1.09 | -0.63 | -0.699 |
| CG3565 | 1 | -1.31 | -0.266 | -2.35 |
| CG3339 | 1 | 0.507 | 0.156 | 0.399 |
| CG3339 | 2 | -2.88 | 0.2 | 1.34 |
| Kdm5 | 1 | 1.18 | 1.29 | 0.0778 |
| Kdm5 | 2 | 1.35 | 1.1 | 0.966 |
| Fsn | 1 | 0.402 | -2.03 | -1.08 |
| Fsn | 2 | 0.216 | 0.331 | 0.491 |
| Or1a | 1 | 0.074 | 0.653 | 0.35 |
| Cyp40 | 1 | 0.182 | 0.281 | -0.958 |
| Cyp40 | 2 | 1.59 (active) | 1.58 | 0.448 |
| Pex13 | 1 | -5.41 | -0.0854 | -0.0431 |
| Ent3 | 1 | -0.721 | 0.85 | -0.707 |
| Ent3 | 2 | 0.437 | 1.33 | -0.327 |
| pcm | 1 | -0.224 | -4.08 | -0.321 |
| scpr-C + scpr-B + scpr-A | 1 | -1.42 | -0.1 | -0.858 |
| Act57B | 1 | 4.4 | 2.14 | 3.17 |
| CG13558 | 1 | -0.749 | 0.473 | -5.96 |
| CG13558 | 2 | 0.318 | -0.483 | 0.122 |
| Tmf | 1 | 1.21 (active) | -1.97 | -3.6 |
| Tmf | 2 | 0.146 | 0.437 | 0.819 |
| Act42A | 1 | 1.6 (active) | 2.95 | 2.8 |
| Act42A | 2 | 0.812 | 0.497 | 0.756 |
| Fatp2 + CG44253 | 1 | 0.492 | -0.205 | 0.274 |
| CG3795 | 1 | 0.466 | 1.04 | 0.931 |
| CG3795 | 2 | 0.0433 | -1.04 | 0.506 |
| CG9822 | 1 | 0.207 | -1.36 | -0.955 |
| snRNA:U3 (retired record) | 1 | 0.799 | 1.3 | 0.169 |
| GLaz | 1 | 0.713 | 0.319 | 0.572 |
| Acsx4 | 1 | 0.57 | -5.76 | 0.453 |
| Acsx4 | 2 | 0.217 | -7.89 | 0.0668 |
| CG1910 | 1 | 0.0427 | -1.03 | -0.361 |
| CG1910 | 2 | -0.481 | 0.47 | -0.462 |
| Eig71Ea | 1 | 1.03 | 0.676 | -0.0649 |
| DIP-theta | 1 | 1.37 | 0.249 | 1.02 |
| DIP-theta | 2 | -0.656 | -1.44 | -1.72 |
| Uhg3 | 1 | 0.826 | -2.15 | -1.44 |
| Sfp84E | 1 | -0.408 | -0.406 | -0.169 |

An excerpt from above, showing only “Wolbachia per cell robust z, rep 2”:
CG7203 #1: 1.58
CG7203 #2: -0.611
CG14903: -0.524
PGAP5 #1: -0.293
PGAP5 #2: -0.63
CG3565: -0.266
CG3339 #1: 0.156
CG3339 #2: 0.2
Kdm5 #1: 1.29
Kdm5 #2: 1.1
Fsn #1: -2.03
Fsn #2: 0.331

More results follow.
| target | reagent no. | Wolbachia per cell robust z, rep 1 | Wolbachia per cell robust z, rep 2 | Wolbachia per cell robust z, rep 3 |
| --- | --- | --- | --- | --- |
| CG42711 | 1 | -0.662 | -1.09 | -0.274 |
| Cpr76Bd | 1 | -0.173 | -2.4 | 0.00626 |
| Cyp28d1 | 1 | -0.554 | -5.99 | 0.927 |
| Cyp28d1 | 2 | 0.938 | -0.0728 | 1.38 |
| Cyp28d1 | 3 | 0.994 | -0.871 | 0.278 |
| CG18327 | 1 | -0.0034 | 1.26 | -0.712 |
| CG18327 | 2 | 0.323 | -0.267 | -0.203 |
| Ulp1 | 1 | -0.456 | -0.331 | 0.533 |
| Pepck1 | 1 | -0.0798 | 0.251 | -0.675 |
| Pepck1 | 2 | -0.0243 | -1.21 | -1.41 |
| Pbp45 | 1 | 0.225 | 0.614 | -1.06 |
| betaNACtes3 | 1 | -2.08 | 0.392 | 0.71 |
| app | 1 | -0.358 | 0.0384 | 0.674 |
| app | 2 | 0.896 | 0.236 | 0.897 |
| app | 3 | -0.302 | 0.247 | 0.455 |
| app | 4 | -1.03 | -0.0661 | 0.479 |
| lncRNA:CR31526 | 1 | -0.469 | 0.643 | 0.595 |
| lncRNA:CR31526 | 2 | -6.96 | 0.379 | -0.612 |
| lncRNA:CR31526 | 3 | 0.212 | -0.262 | 0.193 |
| GluRIB | 1 | 0.184 | -0.536 | -0.392 |
| GluRIB | 2 | 0.541 | 0.285 | -0.888 |
| GluRIB | 3 | -0.625 | -2.29 | -0.491 |
| raskol | 1 | 0.229 | 0.0298 | 0.857 |
| raskol | 2 | 1.32 | 1.04 | 0.765 |
| raskol | 3 | 0.949 | -1.71 | -0.129 |
| raskol | 4 | -0.187 | 0.301 | 0.671 |
